Experimental data taken from patent publication US9694024B2 (priority 2010, dated 2017).

System: HIVIIIB
Test: CMX157 and tenofovir levels in HIVIIIB lysates
Conditions: HIV + 500 nM compound

Structure (SMILES): C[C@H](Cn1cnc2c(N)ncnc21)OCP(=O)(O)O [Tenofovir, (R)-9-(2-phosphonylmethoxypropyl)adenine, reference compound]
- Tenofovir level in HIVIIIB lysate: 17 pmol

Structure (SMILES): CCCCCCCCCCCCCCCCOCCCOP(=O)(O)CO[C@H](C)Cn1cnc2c(N)ncnc21 [CMX157, 3-(hexadecyloxy)propyl hydrogen ((R)-1-(6-amino-9H-purin 9-yl)propan-2-yloxy)methylphosphonate]
- CMX157 level in HIVIIIB lysate: 5406 pmol
- Tenofovir level in HIVIIIB lysate: 0.3 pmol
